Assay: Analysis of mucin O-glycan profiles by NSI-MS (relative abundance of released glycans)
Conditions: for % Total Profile: including peeling products; for pmol/mg of total released glycan: permethylated glycans, NSI-MS; for % Total Profile w/o Peeling: without peeling products (glycans 81-83)

| SMILES | % Total Profile (MUC5AC preparation) | pmol/mg of total released glycan (MUC5AC preparation) | % Total Profile w/o Peeling (MUC5AC preparation) | % Total Profile (MUC5B preparation) | pmol/mg of total released glycan (MUC5B preparation) | % Total Profile w/o Peeling (MUC5B preparation) |
| --- | --- | --- | --- | --- | --- | --- |
| CCS[C@@H]1O[C@@H]2CO[C@H](c3ccccc3)O[C@@H]2[C@H](OCc2ccccc2)[C@H]1O [Compound 15] | 15.98% | 87.06 pmol/mg | 17.00% | 2.35% | 4.25 pmol/mg | 2.57% |
| CCS[C@@H]1O[C@@H]2CO[C@H](c3ccccc3)O[C@@H]2[C@H](OCc2ccccc2)[C@H]1OC(=O)c1ccccc1 [Compound 16] | 1.86% | 10.15 pmol/mg | 1.98% | 6.21% | 11.24 pmol/mg | 6.80% |
| COc1ccc([C@H]2OC[C@H]3O[C@H](OC)[C@H](NC(C)=O)[C@@H](O[C@@H]4O[C@@H]5CO[C@H](c6ccccc6)O[C@@H]5[C@H](OC(C)=O)[C@H]4OC(C)=O)[C@H]3O2)cc1 [Compound 21] | 3.83% | 20.85 pmol/mg | 4.07% | 2.20% | 3.99 pmol/mg | 2.41% |
| COC(=O)[C@@]1(O[C@@H]2[C@@H](O)[C@H](O[C@@H]3[C@@H](NC(C)=O)[C@@H](OC)O[C@@H]4CO[C@H](c5ccc(OC)cc5)O[C@H]34)O[C@@H]3CO[C@H](c4ccccc4)O[C@H]23)C[C@H](OC(C)=O)[C@@H](NC(C)=O)[C@H]([C@H](OC(C)=O)[C@@H](COC(C)=O)OC(C)=O)O1 [Compound 24] | 0.34% | 1.86 pmol/mg | 0.36% | 1.65% | 2.98 pmol/mg | 1.81% |
| CO[C@H]1O[C@H](CO)[C@H](O)[C@H](O[C@@H]2O[C@@H]3COC(c4ccccc4)O[C@@H]3[C@H](OCc3ccccc3)[C@H]2O[C@@H]2O[C@@H](C)[C@@H](OCc3ccccc3)[C@@H](OCc3ccccc3)[C@@H]2OCc2ccccc2)[C@H]1NC(C)=O (stereo partly drawn) [Compound 26] | 0.41% | 2.25 pmol/mg | 0.44% | – | – | – |
| CCS[C@@H]1O[C@@H]2CO[C@@H](c3ccccc3)O[C@H]2[C@H](O)[C@H]1N1C(=O)c2ccccc2C1=O [Compound 28] | 0.31% | 1.72 pmol/mg | 0.34% | 1.34% | 2.42 pmol/mg | 1.46% |
| CCS[C@@H]1O[C@@H]2CO[C@@H](c3ccccc3)O[C@H]2[C@H](OCc2ccccc2)[C@H]1N1C(=O)c2ccccc2C1=O [Compound 29] | 0.90% | 4.93 pmol/mg | 0.96% | 1.82% | 3.30 pmol/mg | 2.00% |
| CO[C@H]1O[C@H](CO)[C@H](O)[C@H](O[C@@H]2O[C@H](CO)[C@H](O)[C@H](O[C@]3(C(=O)[O-])C[C@H](O)[C@@H](NC(C)=O)[C@H]([C@H](O)[C@H](O)CO)O3)[C@H]2O)[C@H]1NC(C)=O.[Na+] [Core 1+sialic acid, Methyl 3-O-(sodium 5-acetamido-3,5-dideoxy-D-glycero-α-D-galacto-2-nonulopyranosylonate)-β-D-galactopyranosyl-(1→3)-2-acetamido-2-deoxy-α-D-galactopyranoside] | 1.10% | 5.99 pmol/mg | 1.17% | 2.42% | 4.38 pmol/mg | 2.65% |
